## Potato spindle tuber viroid, loop 6: variant abundance in plants

Values reported by Wu et al. 2024 (doi:10.1371/journal.ppat.1012142).

PSTVd intermediate strain, loop 6: wild type UGACCGCGAG, pool pattern UNNNCGNNNG; upper and lower strand joined, each 5' to 3', the first 5 letters being the upper strand, closing pairs included.

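Three N. benthamiana plants were inoculated with the whole mutant pool. Samples came from the inoculated region at 5 days, the leaf margin at 10 and upper systemic leaves at 12.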

Numbers give reads per thousand; 0 = not seen among the reads, higher = more abundant.
Each value is the mean of three plants.
"Pool" is the share in the plasmid pool used as inoculum, on the same scale.
The inoculated region was read from the minus strand, the other sites from the plus strand.
IR is the inoculated region, LM the leaf margin, Sys the systemic leaves.
With 36,220-57,551 reads a sample, very low values are single reads.

For UCAGCGAUCG (pool 0.248) the result was IR 0.0768; LM 0; Sys 0.
For UGCGCGGGCG (pool 0.144) the result was IR 0.0646; LM 0; Sys 0.
For CGACCGAGUG (pool 0.0131) the result was IR 0.521; LM 0.102; Sys 0.
For UUUCCGCCGG (pool 0.248) the result was IR 0.119; LM 0.0309; Sys 0.
For UGGUCGGGGG (pool 0.196) the result was IR 0.0776; LM 0; Sys 0.
For UGCUCGUUAG (pool 0.405) the result was IR 0.115; LM 0.00920; Sys 0.
For UCGGCGGAAG (pool 0.144) the result was IR 0.0656; LM 0; Sys 0.
For UUUUCGGCUG (pool 0.248) the result was IR 0.0538; LM 0; Sys 0.
For UGGACGAUCG (pool 0.327) the result was IR 0.0836; LM 0.00773; Sys 0.
For UGCACGCAAG (pool 0.157) the result was IR 0.584; LM 0.0484; Sys 0.
For UGGCCGCGAG (pool 0.170) the result was IR 0.425; LM 0.715; Sys 0.767.
For UAAACGUUGG (pool 0.235) the result was IR 0.132; LM 0; Sys 0.
For UACACGGUCG (pool 0.288) the result was IR 0.749; LM 0.0606; Sys 0.
For UGGCCGGAUG (pool 0.261) the result was IR 0.168; LM 0.0552; Sys 0.
For UUGGCGUCAG (pool 0.392) the result was IR 0.100; LM 0; Sys 0.
For UCCCCGUUCG (pool 0.261) the result was IR 0.0894; LM 0.00920; Sys 0.
For UCGACGCAUG (pool 0.248) the result was IR 0.0710; LM 0; Sys 0.
For UCCCCGUAUG (pool 0.405) the result was IR 0.0889; LM 0.144; Sys 0.00673.
For UUUUCGCAAG (pool 0.157) the result was IR 0.131; LM 0.00773; Sys 0.
For UAAUCGCGAG (pool 0.261) the result was IR 0.174; LM 0.298; Sys 0.0342.
For UCUUCGUCAG (pool 0.248) the result was IR 0.0889; LM 0.0252; Sys 0.
For UCCUCGGCAG (pool 0.0915) the result was IR 0.0948; LM 0.00920; Sys 0.
For UAAGCGGAGG (pool 0.222) the result was IR 0.101; LM 0; Sys 0.00684.
For UUACCGGUUG (pool 0.222) the result was IR 0.108; LM 0.0232; Sys 0.
For UCCCCGGUGG (pool 0.209) the result was IR 0.161; LM 0.471; Sys 0.
For UUGGCGUGCG (pool 0.340) the result was IR 0.0661; LM 0; Sys 0.

Extract of 2 entries:

UCCCCGUUCG (pool 0.261): IR 0.0894; LM 0.00920; Sys 0.
UGGCCGGAUG (pool 0.261): IR 0.168; LM 0.0552; Sys 0.

The authors trace changes outside the varied positions to PCR and sequencing errors or to mutation in the plant; presence does not show that a variant is infectious alone.
Wild type was 20.7 per thousand in the pool and the most common sequence in every sample (inoculated region 195, 198, 203; leaf margin 629, 591, 734; systemic leaves 942, 870, 868).